Replication capacity of HIV-1 mutants, integrase

Reference: Al-Mawsawi et al. 2014, doi:10.1186/s12977-014-0124-6.

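Random point mutant libraries of HIV-1 NL4-3, one for each of seven fragments, were passaged in CEM T lymphocytes. Sequencing gave the RC index: frequency after two rounds over frequency in the input plasmid.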

Protein: integrase of HIV-1 NL4-3, numbered from its first residue. The source prints no sequence; the chain below is taken from UniProt P12497, a closely related isolate, and fits the source at the 252 positions it covers.
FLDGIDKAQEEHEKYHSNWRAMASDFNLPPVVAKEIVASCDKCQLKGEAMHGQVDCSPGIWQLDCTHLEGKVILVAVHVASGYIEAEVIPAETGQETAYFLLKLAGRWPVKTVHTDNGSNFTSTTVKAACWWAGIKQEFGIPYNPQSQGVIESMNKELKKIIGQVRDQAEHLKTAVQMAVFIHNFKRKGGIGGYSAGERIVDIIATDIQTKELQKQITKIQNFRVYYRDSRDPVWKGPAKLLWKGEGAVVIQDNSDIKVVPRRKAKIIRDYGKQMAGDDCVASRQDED
Effects on overlapping genes or RNA elements are not listed.

RC index: lower means poorer replication; rough cut-offs are 0.1 (lethal) and 0.2 (tolerated).
Substitutions are written as wild-type residue, site number, new residue.
Input reads are the counts in the plasmid library.

{"mutation": "A129S", "base": "G4614T", "input reads": "146", "replication capacity index": 0.0948}
{"mutation": "C130G", "base": "T4617G", "input reads": "49", "replication capacity index": 0.161}
{"mutation": "C130F", "base": "G4618T", "input reads": "32", "replication capacity index": 0.309}
{"mutation": "W131S", "base": "G4621C", "input reads": "104", "replication capacity index": 0.0380}
{"mutation": "W132C", "base": "G4625C", "input reads": "53", "replication capacity index": 0.0373}
{"mutation": "A133S", "base": "G4626T", "input reads": "108", "replication capacity index": 0.0733}
{"mutation": "A133G", "base": "C4627G", "input reads": "114", "replication capacity index": 0.0694}
{"mutation": "G134E", "base": "G4630A", "input reads": "342", "replication capacity index": 0.353}
{"mutation": "G134V", "base": "G4630T", "input reads": "257", "replication capacity index": 0.123}
{"mutation": "K136E", "base": "A4635G", "input reads": "732", "replication capacity index": 0.0459}
{"mutation": "K136R", "base": "A4636G", "input reads": "560", "replication capacity index": 0.0353}
{"mutation": "K136N", "base": "G4637C", "input reads": "41", "replication capacity index": 0.386}
{"mutation": "Q137L", "base": "A4639T", "input reads": "536", "replication capacity index": 0.0332}
{"mutation": "E138K", "base": "G4641A", "input reads": "203", "replication capacity index": 0.604}
{"mutation": "E138G", "base": "A4642G", "input reads": "330", "replication capacity index": 0.0300}
{"mutation": "E138D", "base": "A4643T", "input reads": "321", "replication capacity index": 0.0431}
{"mutation": "F139S", "base": "T4645C", "input reads": "334", "replication capacity index": 0.0651}
{"mutation": "F139L", "base": "T4646A", "input reads": "377", "replication capacity index": 0.0367}
{"mutation": "F139L", "base": "T4646G", "input reads": "51", "replication capacity index": 0.116}
{"mutation": "I141F", "base": "A4650T", "input reads": "269", "replication capacity index": 0.0441}
{"mutation": "Y143N", "base": "T4656A", "input reads": "405", "replication capacity index": 0.0309}
{"mutation": "N144S", "base": "A4660G", "input reads": "258", "replication capacity index": 0.0554}
{"mutation": "N144K", "base": "T4661A", "input reads": "354", "replication capacity index": 0.0353}
{"mutation": "Q146L", "base": "A4666T", "input reads": "438", "replication capacity index": 0.0245}
{"mutation": "Q146H", "base": "A4667T", "input reads": "413", "replication capacity index": 0.0519}
{"mutation": "S147C", "base": "A4668T", "input reads": "414", "replication capacity index": 0.0388}
{"mutation": "G149E", "base": "G4675A", "input reads": "296", "replication capacity index": 0.670}
{"mutation": "V150I", "base": "G4677A", "input reads": "176", "replication capacity index": 0.477}
{"mutation": "V150L", "base": "G4677T", "input reads": "108", "replication capacity index": 0.0827}
{"mutation": "I151L", "base": "A4680T", "input reads": "424", "replication capacity index": 0.0337}
{"mutation": "I151M", "base": "A4682G", "input reads": "301", "replication capacity index": 0.166}
{"mutation": "E152G", "base": "A4684G", "input reads": "324", "replication capacity index": 0.0386}
{"mutation": "E152V", "base": "A4684T", "input reads": "207", "replication capacity index": 0.0431}
{"mutation": "E152D", "base": "A4685T", "input reads": "334", "replication capacity index": 0.0374}
{"mutation": "S153T", "base": "T4686A", "input reads": "280", "replication capacity index": 0.0383}
{"mutation": "S153P", "base": "T4686C", "input reads": "192", "replication capacity index": 0.102}
{"mutation": "S153C", "base": "C4687G", "input reads": "32", "replication capacity index": 0.167}
{"mutation": "S153F", "base": "C4687T", "input reads": "133", "replication capacity index": 0.550}
{"mutation": "M154T", "base": "T4690C", "input reads": "250", "replication capacity index": 0.0714}

The first 3 entries again:

mutation,base,input reads,replication capacity index
A129S,G4614T,146,0.0948
C130G,T4617G,49,0.161
C130F,G4618T,32,0.309

Since each clone held several changes (about five per kb), neutral changes can read low.
Nucleotide positions follow pNL4-3.
An index over 1, which the authors read as above wild type, was rare (1.9% of all changes in the genome).